From PubChem BioAssay AID504332 (National Center for Advancing Translational Sciences (NCATS), 2011)
This is a selection; strong and weak results do not stand in their true shares. Records with an inconclusive call do not appear. Calls of active or inactive are those of the source. The call rests on the fitted dose curve; in most records, active means well fitted inhibition curve with a large enough effect; inconclusive means small, poorly fitted or top-dose-only effect; inactive means no such curve, though single readings can be large or run the other way.

By UniProt entry, the sequences of proteins in these tests, tags left out. Residues count along the entry.
UniProt Q96KQ7, 913-1193 limits assumed: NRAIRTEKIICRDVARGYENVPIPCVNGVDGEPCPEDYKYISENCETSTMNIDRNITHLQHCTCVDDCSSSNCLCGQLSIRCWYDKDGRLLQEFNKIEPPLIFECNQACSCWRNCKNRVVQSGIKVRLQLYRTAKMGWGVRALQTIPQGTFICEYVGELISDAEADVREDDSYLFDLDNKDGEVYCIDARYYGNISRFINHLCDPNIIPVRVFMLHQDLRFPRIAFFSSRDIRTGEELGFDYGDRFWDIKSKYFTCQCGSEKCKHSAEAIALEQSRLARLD

target: Histone-lysine N-methyltransferase EHMT2 (Homo sapiens) (UniProt Q96KQ7); assay: qHTS Assay for Inhibitors of Histone Lysine Methyltransferase G9a; conditions: G9a H3K9 monomethylation, AlphaScreen, 2 h; further: nearly all actives have a fitted effect of over 75% in size
Potency means the concentration at half of the fitted maximal effect.

Row | SMILES | Potency
1 | COc1ccc2cc([S+]([O-])Cc3ncc(C)c(OC)c3C)nc2c1 | active: 5.97 µM
